Experiments:
[1] = target: 3Cys site directed variant of H3 A/Perth/16/2009 rHA (C539A, C546A, C549A) (influenza A virus, H3 A/Perth/16/2009); experiment: cross-linking
[2] = target: 2Cys site directed variant of H3 A/Perth/16/2009 rHA (C524S, C528A) (influenza A virus, H3 A/Perth/16/2009); experiment: cross-linking

Substance	percent cross-linked after 1 month at 25°C [1] [%]	percent cross-linked after 1 month at 25°C [2] [%]
3Cys site directed variant of H3 A/Perth/16/2009 rHA (C539A, C546A, C549A) (natural protein)	15	–
2Cys site directed variant of H3 A/Perth/16/2009 rHA (C524S, C528A) (natural protein)	–	63

Source: article PMC4320835, “Modifications of cysteine residues in the transmembrane and cytoplasmic domains of a recombinant hemagglutinin protein prevent cross-linked multimer formation and potency loss” (2014)
